Anti-infective test results gathered from many reports (values: NIAID ChemDB through PubChem).

All rows: enzyme or target tests

Conditions beyond the fields shown may differ between rows. Inhibition is in % at the dose shown (toxicity tests: loss of growth or viability). ICn is the concentration giving n% inhibition. An empty or dashed field is not shown.

structure,target,measure,strain or isolate,organism,method,tested at,result
O=C(NO)c1cc(=O)c2ccccc2[nH]1,RNA-dependent RNA polymerase,IC50,,Influenza A virus,,,700 µM
C[C@H](CO)[C@@H](OC(=O)N1CCN(C(=O)OCc2ccccc2)CC1)[C@@H]1OC(C(=O)O)=C[C@H](N=C(N)N)[C@H]1NC(=O)O,Sialidase,IC50,Victoria,Influenza B virus,,,0.34 µM
NC(=O)c1ncccc1O,RNA-dependent RNA polymerase,IC50,,Influenza A virus,,,>500 µM
CCCCCCCCCCCCCCCCCC(=O)OC[C@@H](COP(=O)(O)OCCNCCO[C@@]1(C(=O)O)O[C@@H]([C@H](O)[C@H](O)CO)[C@H](NC(C)=O)[C@@H](O)[C@H]1F)OC(=O)CCCCCCCCCCCCCCCCC,Sialidase,IC50,H1N1 A/PR/8/34,Influenza A virus,,,31.3 µM
CCCCCCN(CCCCCC)C(=O)O[C@@H]([C@@H]1OC(C(=O)O)=C[C@H](N)[C@H]1NC(=O)O)[C@H](C)CO,Sialidase,IC50,H3N2 AICHI,Influenza A virus,,,76 µM
CC(=O)N[C@H]1[C@H](Oc2cccc3ccccc23)O[C@H](OS(=O)(=O)O)[C@@H](O)[C@@H]1O,Sialidase,IC50,H3N2 MEMPH/1/71,Influenza A virus,fluorescence,,10 µM
O=c1[nH]c2c(Cl)cc(Cl)cc2c(=O)n1O,RNA-dependent RNA polymerase,IC50,,Influenza A virus,,,50 µM
COCON1C(=O)C(CC(C)C)=N/C(=C\C(C)C)C1=O,Transcriptase,IC50,A/PR/8/34,Influenza A virus,,,>355 µM
C[C@H](CO)[C@@H](OC(N)=O)[C@@H]1OC(C(=O)O)=C[C@H](N)[C@H]1NC(=O)O,Sialidase,IC50,H3N2 AICHI,Influenza A virus,,,0.32 µM
CC(C)(C)c1cc(Cl)c(O)c(C(N)C(=O)O)c1,Neuraminidase,Ki,Memphis/3/89,Influenza B virus,,,690 µM
CC(=O)N[C@H](CC(=O)C(=O)O)[C@@H](O)[C@H](O)[C@H](O)CO,Neuraminidase,Ki,,Influenza A virus,,,300 µM
CCCN(CCC)C(=O)O[C@@H]([C@@H]1OC(C(=O)O)=C[C@H](N)[C@H]1NC(=O)O)[C@H](C)CO,Sialidase,IC50,Victoria,Influenza B virus,,,2 µM
CCC(CC)O[C@@H]1C=C(C(=O)O)CC[C@H]1NC(C)=O,Influenza virus sialidases,IC50,AICHI N2,Influenza A virus,fluorescence,,0.07 µM
COc1cccnc1C(=O)NO,RNA-dependent RNA polymerase,IC50,,Influenza A virus,,,>65 µM
CC(=O)N[C@H]1[C@H](OCC(O)CO)O[C@H](OS(=O)(=O)O)[C@@H](O)[C@@H]1O,Sialidase,IC50,H3N2 MEMPH/1/71,Influenza A virus,fluorescence,,19 µM
C[C@H](CO)[C@@H](OC(N)=O)[C@@H]1OC(C(=O)O)=C[C@H](N=C(N)N)[C@H]1NC(=O)O,Sialidase,IC50,H3N2 AICHI,Influenza A virus,,,0.005 µM
CC(=O)N[C@@H]1[C@@H](N=C(N)N)C=C(C(=O)O)O[C@H]1C(=O)C(C)C,Influenza virus sialidases,IC50,Victoria,Influenza B virus,fluorescence,,110 µM
CC(=O)N[C@H]1[C@H](Oc2ccc3ccccc3c2)O[C@H](OS(=O)(=O)O)[C@@H](O)[C@@H]1O,Sialidase,IC50,H3N2 MEMPH/1/71,Influenza A virus,fluorescence,,110 µM
CCCCCCCCCCCCC/C=C/[C@@H](O)[C@H](CO[C@@H]1O[C@H](CO)[C@H](O)[C@H](OS(=O)(=O)O)[C@H]1O)NC(=O)CCCCCCCCCCCCCCCCCCCCCCC,Sialidase,inhibition,H3N2 A/AICHI/2/2/68,Influenza A virus,,200 µM,58.6%
CCCCCCCNC(=O)O[C@@H]([C@@H]1OC(C(=O)O)=C[C@H](N)[C@H]1NC(=O)O)[C@H](C)CO,Sialidase,IC50,H3N2 AICHI,Influenza A virus,,,6 µM
CC(C)(C)OC(=O)N1C[C@H](N)[C@H](C(=O)O)C1,Neuraminidase,Ki,Memphis/3/89,Influenza B virus,,,2500 µM

Repeating the final 3 entries:

structure	target	measure	strain or isolate	organism	method	tested at	result
CCCCCCCCCCCCC/C=C/[C@@H](O)[C@H](CO[C@@H]1O[C@H](CO)[C@H](O)[C@H](OS(=O)(=O)O)[C@H]1O)NC(=O)CCCCCCCCCCCCCCCCCCCCCCC	Sialidase	inhibition	H3N2 A/AICHI/2/2/68	Influenza A virus		200 µM	58.6%
CCCCCCCNC(=O)O[C@@H]([C@@H]1OC(C(=O)O)=C[C@H](N)[C@H]1NC(=O)O)[C@H](C)CO	Sialidase	IC50	H3N2 AICHI	Influenza A virus			6 µM
CC(C)(C)OC(=O)N1C[C@H](N)[C@H](C(=O)O)C1	Neuraminidase	Ki	Memphis/3/89	Influenza B virus			2500 µM